A mixed list of measured activities; the numbers were collected in NIAID ChemDB.

Shared fields: host cell toxicity; read-out: CC50

Conditions beyond the fields shown may differ between rows. CCn is the concentration with n% toxicity to the cells.

CC1=C[C@H]2O[C@@H]3C[C@H]4OC(=O)/C=C\C=C\C(=O)OCC[C@@H](C)[C@H](O)C(=O)OC[C@@]2(CC1)[C@]4(C)[C@]31CO1 ; cell line: VERO ; result: 0.0066 µg/mL
CC(C)OC(=O)C(N)CCSC[C@H]1O[C@@H](n2ccc3c(N)ncnc32)[C@H](O)[C@@H]1O ; cell line: HeLa ; result: 100 µg/mL
c1ccc(N=Nc2ccccc2)cc1 ; cell line: VERO ; result: >400 µM
Nc1nc(N)c2ncn(C[C@@H](CO)OCP(=O)(O)O)c2n1 ; cell line: PHK ; result: >42.5 µg/mL
C[C@@]1(CO)[C@H](O)CC[C@@]2(C)[C@H]1CC[C@H]1C[C@@H]3C[C@@]12CC[C@]3(O)CO ; cell line: HeLa ; result: 0.22 µM
Nc1ccn(C[C@H]2COP(=O)(O)CO2)c(=O)n1 ; cell line: PHK ; result: ≥41 µg/mL
Nc1ccn([C@H]2CC[C@@H](CO)O2)c(=O)n1 ; cell line: VERO 76 ; result: >100 µM
CCN(C)c1nc(N)nc2c1ncn2CCOCP(=O)(O)O ; cell line: PHK ; result: 2.2 µg/mL
Nc1nccc2c1ncn2[C@@H]1C=C[C@@H](O)[C@H]1O ; cell line: HeLa ; result: 5.6 µg/mL
Nc1ncnc2c1ccn2[C@@H]1O[C@H](CSCCC(NC(=O)C(F)(F)F)C(=O)O)[C@@H](O)[C@H]1O ; cell line: HeLa ; result: >400 µg/mL
NC(=O)c1ncn([C@@H]2O[C@H](CO)[C@@H](O)[C@H]2O)n1 ; cell line: LLC-MK2 ; result: >100 µg/mL
CC(C)CCCCCOP(=O)(COCCn1cnc2c(N)ncnc21)OCCCCCC(C)C ; cell line: PHK ; result: 12.9 µg/mL
CCN1CCCCC1C1C2CC3CC(C2)CC1C3 ; cell line: MDCK ; result: 143 µM
Nc1ccn(C[C@H]2COP(=O)(O)CO2)c(=O)n1 ; cell line: HFF ; result: >302 µM
C[C@H]1O[C@@H](n2cnc3c(N)ncnc32)[C@H](O)[C@@H]1O ; cell line: VERO E6 ; result: >100 µM
Nc1ncnc2c1ncn2[C@H]1C[C@@H](O)[C@@H](CO)O1 ; cell line: HeLa ; result: 400 µg/mL
C=CSC[C@H]1O[C@@H](n2cnc3c(N)ncnc32)[C@H](O)[C@@H]1O ; cell line: VERO ; result: >650 µM
NC12CC3CC(CC(C3)C1)C2 ; cell line: MDCK ; result: >500 µM
C=CCNc1nc(N)nc2c1ncn2CCOCP(=O)(O)O ; cell line: HFF ; result: >305 µM
C#CCNc1nc(N)nc2c1ncn2CCOCP(=O)(O)O ; cell line: PHK ; result: 2.9 µg/mL
O=c1cnn([C@@H]2O[C@H](CO)[C@@H](O)[C@H]2O)c(=O)[nH]1 ; cell line: VERO ; result: 0.9 µg/mL
Nc1nc(N)c2ncn(C[C@H]3CC[C@@H](CO)C3)c2n1 ; cell line: HeLa ; result: ≥400 µg/mL
Nc1ccnc(=O)[nH]1 ; cell line: VERO 76 ; result: >100 µM
CC1=C[C@H]2O[C@@H]3C[C@H]4OC(=O)/C=C\C=C\[C@H]([C@@H](C)O)OCC[C@@H](C)[C@H](O)C(=O)OC[C@@]2(CC1)[C@]4(C)[C@]31CO1 ; cell line: VERO ; result: 0.0073 µg/mL
CN1CCCCC1C1C2CC3CC(C2)CC1C3 ; cell line: MDCK ; result: 977 µM
CC(N)C12CC3CC(CC(C3)C1)C2 ; cell line: MDCK ; result: >1160 µM
Nc1ncnc2c1ncn2[C@@H]1O[C@H](CO)C[C@H]1O ; cell line: HeLa ; result: 200 µg/mL
Nc1nc(NCC(F)(F)F)c2ncn(CCOCP(=O)(O)O)c2n1 ; cell line: HFF ; result: >270 µM
Nc1ccn([C@H]2C[C@H](O)[C@@H](CO)O2)c(=O)n1 ; cell line: VERO 76 ; result: >100 µM
c1ccc(CN2CCCCC2C23CC4CC(CC(C4)C2)C3)cc1 ; cell line: MDCK ; result: 145 µM
CCCCCCCCCCCCCCCCCCOCCOP(=O)(O)CO[C@H](CO)Cn1ccc(N)nc1=O ; cell line: HFF ; result: 14.3 µM
Cc1c(O)cccc1C(=O)N[C@@H](CSc1ccccc1)[C@H](O)CN1C[C@H]2CCCC[C@H]2C[C@H]1C(=O)NC(C)(C)C ; cell line: VERO ; result: 14.5 µM
Nc1nc(N)c2nnn(C[C@H]3CC[C@@H](CO)C3)c2n1 ; cell line: HeLa ; result: 400 µg/mL
CCOC(=O)C(CCSC[C@H]1O[C@@H](n2ccc3c(N)ncnc32)[C@H](O)[C@@H]1O)NC(=O)COC ; cell line: HeLa ; result: >400 µg/mL
C1CCN(CCN2CCCCCC2C23CC4CC(CC(C4)C2)C3)CC1 ; cell line: MDCK ; result: 840 µM
O=C(O)/C(S)=C/c1ccc(I)cc1 ; cell line: VERO 76 ; result: >100 µM
Nc1nc(N)c2ncn(CCOCP(=O)(O)O)c2n1 ; cell line: PHK ; result: 31.3 µg/mL
Nc1ncnc2c1ncn2[C@@H]1C=C[C@@H](O)[C@H]1O ; cell line: VERO E6 ; result: >1700 µM
Nc1nccc2c1ncn2[C@@H]1C=C(CO)[C@@H](O)[C@H]1O ; cell line: HeLa ; result: 0.31 µg/mL
C=CCNc1nc(N)nc2c1ncn2CCOCP(=O)(O)O ; cell line: PHK ; result: 0.9 µg/mL
Nc1ncnc2c1ncn2[C@H]1[C@H](O)[C@H](O)[C@]2(CO)O[C@H]12 ; cell line: HeLa ; result: 8.2 µg/mL
Nc1nccc2c1ncn2[C@@H]1C[C@H](CO)[C@@H](O)[C@H]1O ; cell line: HeLa ; result: >400 µg/mL
NC(=O)c1ncn([C@@H]2O[C@H](CO)[C@@H](O)[C@H]2O)c1O ; cell line: VERO E6 ; result: >200 µg/mL
Nc1ncnc2c1ncn2C[C@H](O)CO ; cell line: HeLa ; result: >400 µg/mL
NC12CC3CC(CC(C3)C1)C2 ; cell line: MDCK ; result: >1333 µM
Nc1ncnc2c1ncn2[C@@H]1C=C(CO)[C@@H](O)[C@H]1O ; cell line: VERO E6 ; result: 60 µM
CCCCCCCCCCCCCCCCCCOCCOP1(=O)CO[C@@H](Cn2ccc(N)nc2=O)CO1 ; cell line: HFF ; result: 47.8 µM
Nc1nccc2c1ncn2[C@@H]1O[C@H](CO)[C@@H](O)[C@H]1O ; cell line: HeLa ; result: >400 µg/mL

A second listing of 6 rows from above:

compound,cell line,result
Nc1ncnc2c1ccn2[C@@H]1O[C@H](CSCCC(NC(=O)C(F)(F)F)C(=O)O)[C@@H](O)[C@H]1O,HeLa,>400 µg/mL
CC1=C[C@H]2O[C@@H]3C[C@H]4OC(=O)/C=C\C=C\C(=O)OCC[C@@H](C)[C@H](O)C(=O)OC[C@@]2(CC1)[C@]4(C)[C@]31CO1,VERO,0.0066 µg/mL
CCCCCCCCCCCCCCCCCCOCCOP(=O)(O)CO[C@H](CO)Cn1ccc(N)nc1=O,HFF,14.3 µM
CCOC(=O)C(CCSC[C@H]1O[C@@H](n2ccc3c(N)ncnc32)[C@H](O)[C@@H]1O)NC(=O)COC,HeLa,>400 µg/mL
Nc1ncnc2c1ncn2[C@H]1[C@H](O)[C@H](O)[C@]2(CO)O[C@H]12,HeLa,8.2 µg/mL
C=CCNc1nc(N)nc2c1ncn2CCOCP(=O)(O)O,PHK,0.9 µg/mL